Measurements reported in patent EP4039094A1, “NOVEL ANTIFUNGAL COMPOUNDS” (Max-Planck-Gesellschaft zur Förderung der Wissenschaften …, priority 2021, dated 2022).

Amino acid sequences for entries named in this document (tags omitted). Residues count along the entry.
UniProt A0A0D1C5E3, 24-129 limits assumed: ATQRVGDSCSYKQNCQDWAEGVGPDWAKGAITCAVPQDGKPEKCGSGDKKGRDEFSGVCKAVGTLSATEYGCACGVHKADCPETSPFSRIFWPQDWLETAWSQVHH
UniProt A0A0D1CU07, 29-515 limits assumed: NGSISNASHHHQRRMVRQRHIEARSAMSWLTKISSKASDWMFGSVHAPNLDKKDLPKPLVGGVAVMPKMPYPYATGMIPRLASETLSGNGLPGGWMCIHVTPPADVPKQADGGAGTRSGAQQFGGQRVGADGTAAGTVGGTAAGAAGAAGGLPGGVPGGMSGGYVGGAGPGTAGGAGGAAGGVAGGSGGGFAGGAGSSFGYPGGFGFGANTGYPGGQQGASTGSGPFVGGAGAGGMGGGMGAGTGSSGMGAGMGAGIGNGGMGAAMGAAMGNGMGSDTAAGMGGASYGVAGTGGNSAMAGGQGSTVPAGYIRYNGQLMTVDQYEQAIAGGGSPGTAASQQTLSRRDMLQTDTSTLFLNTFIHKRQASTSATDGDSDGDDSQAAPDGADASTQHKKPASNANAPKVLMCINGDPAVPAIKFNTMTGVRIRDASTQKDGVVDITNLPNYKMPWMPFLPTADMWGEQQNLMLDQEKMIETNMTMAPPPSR
UniProt A0A0D1EAN2, 25-327 limits assumed: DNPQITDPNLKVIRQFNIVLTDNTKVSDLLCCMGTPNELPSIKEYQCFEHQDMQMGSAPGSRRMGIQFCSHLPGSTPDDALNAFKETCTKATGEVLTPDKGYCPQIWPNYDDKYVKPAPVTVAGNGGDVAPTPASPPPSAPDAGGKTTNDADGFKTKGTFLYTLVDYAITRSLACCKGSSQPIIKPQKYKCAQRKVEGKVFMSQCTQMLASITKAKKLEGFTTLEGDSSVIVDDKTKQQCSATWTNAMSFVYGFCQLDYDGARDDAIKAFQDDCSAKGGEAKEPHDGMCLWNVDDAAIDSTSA

Biological target: Stp1/Stp4/Stp3 subcomplex (Mycosarcoma maydis, UniProt A0A0D1C5E3+A0A0D1CU07+A0A0D1EAN2)
Test: Alamar Blue viability assay in S. cerevisiae 2-hybrid strain NL73 (viability depends on Stp complex formation)
Format: cell-based, U. maydis
Details: for activity in the Alamar Blue assay with NL73: result in words
[1] = inhibitory activity on NL73 viability, Table 6

| SMILES | IC50 (Alamar Blue assay, Table 7) | activity in the Alamar Blue assay with NL73 | IC50 [1] |
| --- | --- | --- | --- |
| O=c1nc(SCc2ccc(F)cc2)c2c(n1C1CCCC1)CCC2 | 810 nM | appreciable activity | – |
| O=c1nc(SCc2ccccc2F)c2c(n1C1CCCC1)CCC2 | 600 nM | appreciable activity | – |
| CCn1c2c(c(SC(N)c3cccc4ccccc34)nc1=O)CCC2 (stereo not shown) | – | – | 2000 nM |
| COc1ccc(-n2c3c(c(SCc4ccccc4C)nc2=O)CCC3)cc1 | – | – | 4900 nM |
| CCCn1c2c(c(SCc3ccc(C)cc3)nc1=O)CCC2 | 5000 nM | appreciable activity | – |
| N#CCSc1nc(=O)n(C2CCCC2)c2c1CCC2 | – | – | 2000 nM |
| CCOc1ccc(-n2c3c(c(SCc4ccccc4F)nc2=O)CCC3)cc1 | – | – | 9400 nM |
